Mutational tolerance of the Zika virus NS2B-NS3 protease

From the data files of Ni et al. 2025, doi:10.1038/s41467-025-63602-z.

The scanned region of Zika virus MR766 is shown below (positions 1-308): NS2B is 2-131, NS3 begins at position 132.
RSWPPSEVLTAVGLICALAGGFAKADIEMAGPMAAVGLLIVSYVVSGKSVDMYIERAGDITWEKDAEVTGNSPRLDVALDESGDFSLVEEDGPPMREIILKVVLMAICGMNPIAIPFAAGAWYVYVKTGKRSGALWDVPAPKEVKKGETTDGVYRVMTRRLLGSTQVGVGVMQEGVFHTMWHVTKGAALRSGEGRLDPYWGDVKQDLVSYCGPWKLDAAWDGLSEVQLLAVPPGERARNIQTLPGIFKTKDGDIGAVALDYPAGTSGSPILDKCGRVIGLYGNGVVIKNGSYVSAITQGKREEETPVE

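Mutant virus pools were grown in human Huh-7.5 cells. Deep sequencing gave the change in frequency of each mutant relative to wild type, averaged over three replicate libraries (two for positions 207-308). The study looked for pockets that tolerate few changes, as a guide for inhibitor design.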

Scale: log2 effect, wild type = 0; the lower, the more harmful to the virus.
Substitutions are written as wild-type residue, site number, new residue.
The authors count -1 or higher as tolerated. Position 1 is the last residue of NS2A.
Stop codons (*) centre on -7 and mark the level of dead virus.
Six mutants with high scores were retested singly and none clearly outgrew wild type, so positive values are not proof of better growth.
Positions 1-103, 104-206 and 207-308 were made and measured as separate libraries.

| change | log2 effect |
|---|---|
| Y53* | -5.87 |
| Y53A | -6.72 |
| Y53C | -4.11 |
| Y53D | -5.47 |
| Y53E | -5.85 |
| Y53F | -1.63 |
| Y53G | -7.05 |
| Y53H | -4.22 |
| Y53I | -4.06 |
| Y53K | -5.92 |
| Y53L | -7.71 |
| Y53M | -5.51 |
| Y53N | -4.35 |
| Y53P | -7.55 |
| Y53Q | -5.48 |
| Y53R | -6.01 |
| Y53S | -6.81 |
| Y53T | -4.87 |
| Y53V | -2.11 |
| Y53W | -3.30 |
| I54* | -7.77 |
| I54A | -6.85 |
| I54C | -5.47 |
| I54D | -5.44 |
| I54E | -5.57 |
| I54F | -5.58 |
| I54G | -6.63 |
| I54H | -6.33 |
| I54K | -6.40 |
| I54L | -0.87 |
| I54M | -5.06 |
| I54N | -5.59 |
| I54P | -7.56 |
| I54Q | -6.49 |
| I54R | -7.78 |
| I54S | -7.68 |
| I54T | -6.49 |
| I54V | -1.07 |
| I54W | -5.96 |
| I54Y | -5.93 |
| E55* | -3.77 |
| E55A | -3.18 |
| E55C | -1.91 |
| E55D | -2.86 |
| E55F | -6.42 |
| E55G | -7.09 |
| E55H | -5.87 |
| E55I | -2.57 |
| E55K | -5.64 |
| E55L | -3.60 |
| E55M | -1.99 |
| E55N | -6.31 |
| E55P | -7.67 |
| E55Q | -1.98 |
| E55R | -7.67 |
| E55S | -3.59 |
| E55T | -2.71 |
| E55V | -1.48 |
| E55W | -6.23 |
| E55Y | -6.44 |
| R56* | -7.54 |
| R56A | -2.06 |
| R56C | -5.03 |
| R56D | -5.18 |
| R56E | -5.62 |
| R56F | -1.23 |
| R56G | -6.18 |
| R56H | -1.09 |
| R56I | -2.78 |
| R56K | -2.24 |
| R56L | -2.35 |
| R56M | -3.53 |
| R56N | -4.71 |
| R56P | -1.40 |
| R56Q | -2.17 |
| R56S | -3.32 |
| R56T | -5.65 |
| R56V | -5.38 |
| R56W | -2.53 |
| R56Y | -0.78 |

Extract of 5 entries:

- R56D = -5.18
- I54V = -1.07
- I54D = -5.44
- R56I = -2.78
- Y53F = -1.63